Results deposited as PubChem BioAssay AID1259414 (Drosophila RNAi Screening Center, 2018)
Purpose: 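Genome-wide screen for host control of endosymbiont load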 (primary screen). Cell system: Drosophila JW18 cells infected with Wolbachia. Knock-down reagent: long dsRNA against Drosophila genes, 0.25 µg dsRNA per well of a 384-well plate. Duration: 5 days. Challenge: cells persistently infected with Wolbachia before knock-down; no added drug. Measured: 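Automated imaging of bacterial rRNA staining divided by host cell count, reported as plate-normalised robust z-score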. Reading the numbers: Wolbachia per cell robust z: higher = more Wolbachia per host cell than the plate typical. Active means: 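Hit when robust z is 1.5 or more, or -1.5 or less, in at least two of three replicates; excludes dsRNAs with several or no targets, genes not expressed in JW18 and well A1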.
The deposit covers about 24,000 reagents; below is an unselected part of those that have a named target and a result. Over the whole deposit, about 1,210 (5%) were called active. 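Inactive calls also include excluded dsRNAs with several or no targets, genes unexpressed in JW18, and well A1, regardless of score.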 Reagents against one gene are numbered here.

Knock-down of CG14891 gave: Wolbachia per cell robust z, rep 1 = -7.18; Wolbachia per cell robust z, rep 2 = -4.97; Wolbachia per cell robust z, rep 3 = 0.129; active.
hh (hedgehog) #1 showed Wolbachia per cell robust z, rep 1 = -4.75; Wolbachia per cell robust z, rep 2 = 0.874; Wolbachia per cell robust z, rep 3 = 1.02; inactive.
After knock-down of hh (hedgehog) #2 the results were Wolbachia per cell robust z, rep 1 = -0.417; Wolbachia per cell robust z, rep 2 = 0.313; Wolbachia per cell robust z, rep 3 = -0.0218; inactive.
With knock-down of hh (hedgehog) #3, the record shows Wolbachia per cell robust z, rep 1 = -1.02; Wolbachia per cell robust z, rep 2 = 0.0713; Wolbachia per cell robust z, rep 3 = 0.0207; inactive.
CG9175 #1 showed Wolbachia per cell robust z, rep 1 = 1.63; Wolbachia per cell robust z, rep 2 = 0.294; Wolbachia per cell robust z, rep 3 = 0.993; inactive.
Against CG9175 #2, the values are Wolbachia per cell robust z, rep 1 = 1.82; Wolbachia per cell robust z, rep 2 = 1.71; Wolbachia per cell robust z, rep 3 = 1.47; active.
CheA87a (Chemosensory protein A 87a) showed Wolbachia per cell robust z, rep 1 = -1.71; Wolbachia per cell robust z, rep 2 = 0.0773; Wolbachia per cell robust z, rep 3 = -1.31; inactive.
For CG17994, the values are Wolbachia per cell robust z, rep 1 = -0.675; Wolbachia per cell robust z, rep 2 = -1.84; Wolbachia per cell robust z, rep 3 = 0.322; inactive.
mip130 (Myb-interacting protein 130) #1 showed Wolbachia per cell robust z, rep 1 = -0.377; Wolbachia per cell robust z, rep 2 = 1.09; Wolbachia per cell robust z, rep 3 = 0.586; inactive.
Against mip130 (Myb-interacting protein 130) #2 the deposit lists Wolbachia per cell robust z, rep 1 = 0.792; Wolbachia per cell robust z, rep 2 = -0.296; Wolbachia per cell robust z, rep 3 = 0.116; inactive.
Arc42 (Activator-recruited cofactor subunit 42) #1 showed Wolbachia per cell robust z, rep 1 = 0.253; Wolbachia per cell robust z, rep 2 = 1.46; Wolbachia per cell robust z, rep 3 = -0.672; inactive.
Knock-down of Arc42 (Activator-recruited cofactor subunit 42) #2 gave: Wolbachia per cell robust z, rep 1 = -3.96; Wolbachia per cell robust z, rep 2 = 0.955; Wolbachia per cell robust z, rep 3 = -0.602; inactive.
Prosalpha3 (Proteasome alpha3 subunit) scored Wolbachia per cell robust z, rep 1 = 2.03; Wolbachia per cell robust z, rep 2 = 1.76; Wolbachia per cell robust z, rep 3 = 2; active.
Silencing of CG3014 came out at: Wolbachia per cell robust z, rep 1 = 0.408; Wolbachia per cell robust z, rep 2 = -1.63; Wolbachia per cell robust z, rep 3 = 0.0146; inactive.
Tmtc2 (Transmembrane O-mannosyltransferase targeting cadherins 2) scored Wolbachia per cell robust z, rep 1 = 1.14; Wolbachia per cell robust z, rep 2 = 1.79; Wolbachia per cell robust z, rep 3 = 0.0878; inactive.
After knock-down of CG12279 the results were Wolbachia per cell robust z, rep 1 = 0.0635; Wolbachia per cell robust z, rep 2 = -3.63; Wolbachia per cell robust z, rep 3 = -0.0377; inactive.
With knock-down of Oseg6 (Outer segment 6) the results were Wolbachia per cell robust z, rep 1 = -0.0279; Wolbachia per cell robust z, rep 2 = 0.0459; Wolbachia per cell robust z, rep 3 = -2.49; inactive.
CG4477 gave Wolbachia per cell robust z, rep 1 = -2.87; Wolbachia per cell robust z, rep 2 = 1.21; Wolbachia per cell robust z, rep 3 = 0.979; inactive.
After knock-down of CaBP1 (calcium-binding protein 1), the screen gave Wolbachia per cell robust z, rep 1 = -0.024; Wolbachia per cell robust z, rep 2 = 0.408; Wolbachia per cell robust z, rep 3 = -0.435; inactive.
CG13667 showed Wolbachia per cell robust z, rep 1 = 0.915; Wolbachia per cell robust z, rep 2 = 0.29; Wolbachia per cell robust z, rep 3 = 1.06; inactive.
Against CG4661, the entry reads Wolbachia per cell robust z, rep 1 = 0.518; Wolbachia per cell robust z, rep 2 = 0.153; Wolbachia per cell robust z, rep 3 = 0.427; inactive.
For CG11041 #1, the entry reads Wolbachia per cell robust z, rep 1 = -3.42; Wolbachia per cell robust z, rep 2 = -1.13; Wolbachia per cell robust z, rep 3 = 0.387; inactive.
For CG11041 #2 the deposit lists Wolbachia per cell robust z, rep 1 = -5.13; Wolbachia per cell robust z, rep 2 = -2.54; Wolbachia per cell robust z, rep 3 = -1.12; inactive.
After knock-down of TwdlG (TweedleG) #1, the record shows Wolbachia per cell robust z, rep 1 = 0.948; Wolbachia per cell robust z, rep 2 = -0.0236; Wolbachia per cell robust z, rep 3 = -7.07; inactive.
For TwdlG (TweedleG) #2, the values are Wolbachia per cell robust z, rep 1 = 1.01; Wolbachia per cell robust z, rep 2 = 1.01; Wolbachia per cell robust z, rep 3 = 1.3; inactive.
CG12426 showed Wolbachia per cell robust z, rep 1 = -4.94; Wolbachia per cell robust z, rep 2 = -0.789; Wolbachia per cell robust z, rep 3 = -0.66; inactive.
otk (off-track) #1 showed Wolbachia per cell robust z, rep 1 = 0.352; Wolbachia per cell robust z, rep 2 = -1.78; Wolbachia per cell robust z, rep 3 = 0.53; inactive.
With knock-down of otk (off-track) #2, the record shows Wolbachia per cell robust z, rep 1 = -0.495; Wolbachia per cell robust z, rep 2 = 0.5; Wolbachia per cell robust z, rep 3 = 0.214; inactive.
CG10337 showed Wolbachia per cell robust z, rep 1 = -0.598; Wolbachia per cell robust z, rep 2 = 0.603; Wolbachia per cell robust z, rep 3 = 0.152; inactive.
Knock-down of CG33108 #1 resulted in: Wolbachia per cell robust z, rep 1 = -0.984; Wolbachia per cell robust z, rep 2 = -0.316; Wolbachia per cell robust z, rep 3 = 0.038; inactive.
Knock-down of CG33108 #2 came out at: Wolbachia per cell robust z, rep 1 = 0.895; Wolbachia per cell robust z, rep 2 = 1.43; Wolbachia per cell robust z, rep 3 = 0.697; inactive.

2 consecutive reagents from above, quoted:
CG4477 → Wolbachia per cell robust z, rep 1: -2.87; Wolbachia per cell robust z, rep 2: 1.21; Wolbachia per cell robust z, rep 3: 0.979; Outcome: inactive
CaBP1 (calcium-binding protein 1) → Wolbachia per cell robust z, rep 1: -0.024; Wolbachia per cell robust z, rep 2: 0.408; Wolbachia per cell robust z, rep 3: -0.435; Outcome: inactive
